Compound potency records, mixed from different reports. Data source: NIAID ChemDB in PubChem.

Shared fields: enzyme or target tests

Two numbers with a dash give a range or band.

structure | read-out | target | agent | tested at | value
COc1nc(NCCCn2ccnc2)nc(Nc2ccc3[nH]ncc3c2)n1 | inhibition | DNA polymerase | Hepatitis B virus | 1 µg/mL | 56%
CC[C@H](NC(=O)[C@H](CC(C)C)NC(=O)[C@@H](NC(=O)[C@@H](NC(=O)[C@H](CC(=O)O)NC(=O)[C@@H](N)CCC(=O)O)C(C)C)C(C)C)C(=O)c1ncc(-c2c(Cl)cccc2Cl)o1 | Ki | NS3 protease | Hepatitis C virus |  | >100 µM
Cc1cc(S(=O)(=O)Nc2c(C(=O)O)sc3c2Sc2ccc(Cl)cc2C3)c(C)cc1Cl | IC50 | NS3 ATPase | Hepatitis C virus |  | 5–20 µM
CC(C)CCc1c(-c2ccc(OCc3ccccc3)cc2)nc2cc(C(=O)O)[nH]n2c1=O | IC50 | RNA-dependent RNA polymerase | Hepatitis C virus |  | 1–10 µM
O=C(O)CCC(=O)N[C@H](C(=O)N[C@@H](CCC(=O)O)C(=O)N[C@H](C(=O)N[C@@H](CS)C(=O)O)c1ccc(-c2ccccc2)cc1)C(c1ccccc1)c1ccccc1 | inhibition | Nonstructural protein 3 NTPase/helicase | Hepatitis C virus | 16.7 µM | 13%
Cc1ccc2cc(-c3nc4cc(C(=O)NC(Cc5c[nH]c6ccc(O)cc56)C(=O)O)ccc4n3C3CCCCC3)ccc2n1 | inhibition | NS5B polymerase | Hepatitis C virus | 33 µM | 92.74%
CC(C)[C@H](NC(=O)[C@@H](NC(=O)CCC(=O)O)C1CCCCC1)C(=O)N[C@@H](CCC(=O)O)C(=O)NC1(C(=O)O)CC1 | inhibition | Nonstructural protein 3 NTPase/helicase | Hepatitis C virus | 83.5 µM | 14%
CNC(=O)c1c(-c2ccc(F)cc2)oc2cc(C#N)c(OC(C)C)cc12 | IC50 | Nonstructural protein 5B | Hepatitis C virus |  | ≤0.5 µM
CCOC(=O)c1cc2nc(-c3ccc(Cl)cc3)cc(-c3ccc(OC)cc3)n2n1 | IC50 | RNA-dependent RNA polymerase | Hepatitis C virus |  | >10 µM
O=C(NCc1cccnc1)Nc1cscc1-c1nc(C(=O)O)c(O)c(=O)[nH]1 | IC50 | HCV polymerase | Hepatitis C virus |  | <25 µM
CC[C@H](NC(=O)[C@H](CC(C)C)NC(=O)[C@@H](NC(=O)[C@@H](NC(=O)C(CC(=O)O)CC(=O)[C@H](CCC(=O)O)NC(C)=O)C(C)C)C(C)C)C(=O)C(=O)O | Ki | NS3 protease | Hepatitis C virus |  | <1 µM
O=C(O)c1nc(-c2ccccc2NS(=O)(=O)c2sc3ccccc3c2Cl)[nH]c(=O)c1O | IC50 | HCV polymerase | Hepatitis C virus |  | <100 µM
O=C(O)c1cc2nc(-c3ccc(F)cc3)cc(-c3ccccc3Cl)n2n1 | IC50 | RNA-dependent RNA polymerase | Hepatitis C virus |  | >10 µM
O=C(O)c1ccc2c(c1)nc(-c1ccc3nc(-c4ccc5c(c4)CCCC5)ccc3c1)n2C1CCCCC1 | inhibition | NS5B polymerase | Hepatitis C virus | 100 µM | 99.82%
FC(F)(F)c1cccc(COc2cccc(-c3cnc4c(-c5nn[nH]n5)cnn4c3C3CCCCC3)c2)c1 | IC50 | RNA-dependent RNA polymerase | Hepatitis C virus |  | 1–10 µM
CCOC(=O)c1c(C)oc(-c2ccc(Cl)cc2)c1S(=O)(=O)Nc1cc(-c2ccccc2)sc1C(=O)O | IC50 | NS3 ATPase | Hepatitis C virus |  | 5–20 µM
CCc1cc2cc(-c3cnc4cc(C(=O)O)nn4c3C3CCCCC3)ccc2o1 | IC50 | RNA-dependent RNA polymerase | Hepatitis C virus |  | 1–10 µM
CNC(=O)CN1CCN(c2nc(Nc3ccc4cn[nH]c4c3)nc(OC)n2)CC1 | inhibition | Nonstructural protein 5B | Hepatitis C virus | 0.1 µg/mL | 2%
CC(C)C[C@H](NC(=O)CCC(=O)O)C(=O)N[C@@H](CCC(=O)O)C(=O)N[C@@H](CCC(=O)O)C(=O)NC1(C(=O)O)CC1 | inhibition | Nonstructural protein 3 NTPase/helicase | Hepatitis C virus | 83.5 µM | 14%
CC[C@@H](C=O)NC(=O)[C@@H]1C[C@@H](OCc2ccccc2)CN1C(=O)[C@@H](NC(=O)C(O)(c1ccccc1)c1ccccc1)C(C)C | Ki | NS3 protease | Hepatitis C virus |  | >100 µM
COc1nc(NCCc2ccccn2)nc(Nc2ccc3cn[nH]c3c2)n1 | inhibition | Nonstructural protein 5B | Hepatitis C virus | 10 µg/mL | 66%
O=C(O)c1nc(-c2cscc2NS(=O)(=O)c2ccc3ccccc3c2)[nH]c(=O)c1O | IC50 | HCV polymerase | Hepatitis C virus |  | <25 µM
Cc1ccccc1S(=O)(=O)Nc1cc(-c2cc3ccccc3s2)sc1C(=O)O | IC50 | NS3 ATPase | Hepatitis C virus |  | <5 µM
COc1ccc(-c2ccc(Cl)cc2)c(-c2ccc3cc(-c4nc5cc(C(=O)O)ccc5n4C4CC4)ccc3n2)c1 | inhibition | NS5B polymerase | Hepatitis C virus | 100 µM | 101%
CNC(=O)c1c(N(C)S(C)(=O)=O)cc2oc(-c3ccc(F)cc3)c(C(=O)NC)c2c1OC | IC50 | Nonstructural protein 5B | Hepatitis C virus |  | ≤0.5 µM
O=C(Nc1cscc1-c1nc(C(=O)O)c(O)c(=O)[nH]1)OCc1cccc(Cl)c1 | IC50 | HCV polymerase | Hepatitis C virus |  | <25 µM
CC(C)C[C@H](NC(=O)[C@H](CCC(=O)O)NC(=O)[C@@H](NC(=O)CCC(=O)O)C1CCCCC1)C(=O)NC1(C(=O)O)CC1 | inhibition | Nonstructural protein 3 NTPase/helicase | Hepatitis C virus | 83.5 µM | 3%
CNC(=O)c1c(-c2ccc(F)cc2)oc2cc(N(C)S(C)(=O)=O)c(OCc3cccc(C(=O)O)c3)cc12 | IC50 | Nonstructural protein 5B | Hepatitis C virus |  | ≤0.5 µM
CC[C@@H](C=O)NC(=O)[C@@H]1C[C@@H](OC(=O)NCc2ccccc2)CN1C(=O)[C@@H](NC(=O)[C@@H](NC(=O)c1cnccn1)C(C)C)C(C)C | Ki | NS3 protease | Hepatitis C virus |  | 1–100 µM
CN1CCN(C(=O)c2ccc3c(c2)nc(-c2cc4ccc(-c5ccccc5-c5ccccc5)nc4cc2F)n3C2CCCCC2)CC1 | inhibition | NS5B polymerase | Hepatitis C virus | 33 µM | 76.67%
CCC(C)[C@H](NC(=O)[C@@H](NC(=O)CCC(=O)O)C1CCCCC1)C(=O)N[C@@H](CCC(=O)O)C(=O)NC1(C(=O)O)CC1 | IC50 | Nonstructural protein 3 NTPase/helicase | Hepatitis C virus |  | >83.5 µM
CC[C@H](NC(=O)[C@H](CC(C)C)NC(=O)[C@@H](NC(=O)[C@@H](NC(=O)[C@H](CC(=O)O)NC(=O)[C@@H](N)CCC(=O)O)C(C)C)C(C)C)C(=O)c1nccs1 | Ki | NS3 protease | Hepatitis C virus |  | 1–100 µM
CNC(=O)c1c(-c2ccc(F)cc2)oc2cc(-c3cc(CO)on3)c(OC)cc12 | IC50 | Nonstructural protein 5B | Hepatitis C virus |  | ≤0.5 µM
O=C(O)c1ccc2c(c1)nc(-c1cc3ccc(-c4ccccc4-c4ccccc4)nc3cc1F)n2C1CCCCC1 | inhibition | NS5B polymerase | Hepatitis C virus | 100 µM | 98.58%
COc1ccc(C(=O)N(C)c2cc(-c3ccccc3)sc2C(=O)O)cc1OC | IC50 | NS3 ATPase | Hepatitis C virus |  | >20 µM
CNC(=O)c1c(-c2ccc(F)cc2)oc2cc(N(C)S(C)(=O)=O)c(OCc3nnsc3Cl)cc12 | IC50 | Nonstructural protein 5B | Hepatitis C virus |  | ≤0.5 µM
Cc1ccc(C(=O)N(Cc2ccc(F)cc2F)c2cc(-c3ccccc3)sc2C(=O)O)cc1 | IC50 | NS3 ATPase | Hepatitis C virus |  | <5 µM
CNC(=O)c1c(-c2ccc(F)cc2)oc2cc(N3CCCC3)c(OC(C)C)cc12 | IC50 | Nonstructural protein 5B | Hepatitis C virus |  | ≤0.5 µM
CC(C)NC1=NC(NC(C)C)N(CN)C(Nc2ccc3cn[nH]c3c2)=N1 | inhibition | DNA polymerase | Hepatitis B virus | 0.01 µg/mL | 36%
O=C(O)c1ccc2c(c1)nc(-c1ccc3nc(-c4ccc(O)cc4O)ccc3c1)n2C1CCCCC1 | inhibition | NS5B polymerase | Hepatitis C virus | 33 µM | 98.6%
CC(=O)c1cccc(NC(=O)Nc2cccc(-c3nc(C(=O)O)c(O)c(=O)[nH]3)c2)c1 | IC50 | HCV polymerase | Hepatitis C virus |  | <100 µM
COc1nc(Nc2ccc3cn[nH]c3c2)nc(N2CCC(O)CC2)n1 | inhibition | DNA polymerase | Hepatitis B virus | 0.1 µg/mL | 37%
CCC(C=O)NC(=O)C1[C@@H]2CC2CN1C(=O)[C@@H](NC(=O)[C@@H](NC(=O)[C@H](CC(=O)O)NC(=O)[C@H](CCC(=O)O)NC(C)=O)C(C)C)C(C)C | Ki | NS3 protease | Hepatitis C virus |  | <1 µM
COc1nc(NCCc2c[nH]c3ccccc23)nc(Nc2ccc3[nH]ncc3c2)n1 | inhibition | DNA polymerase | Hepatitis B virus | 0.01 µg/mL | 14%
O=C(NCCc1c(Cl)cccc1Cl)Nc1ccsc1-c1nc(C(=O)O)c(O)c(=O)[nH]1 | IC50 | HCV polymerase | Hepatitis C virus |  | <25 µM
O=C(O)CCC(=O)N[C@@H](CCC(=O)O)C(=O)N[C@@H](CCC(=O)O)C(=O)N[C@@H](CS)C(=O)O | IC50 | Nonstructural protein 3 NTPase/helicase | Hepatitis C virus |  | >16.7 µM
CS(=O)c1ccc(-c2cc(NC(=O)c3ccc(Cl)cc3Cl)c(C(=O)O)s2)cc1 | IC50 | NS3 ATPase | Hepatitis C virus |  | <5 µM
COc1nc(Nc2ccc3[nH]ncc3c2)nc(N2CCC(O)CC2)n1 | inhibition | DNA polymerase | Hepatitis B virus | 1 µg/mL | 43%
O=C(O)CCC(=O)N[C@@H](CCC(=O)O)C(=O)N[C@@H](CCC(=O)O)C(=O)NC1(C(=O)O)CC1 | inhibition | Nonstructural protein 3 NTPase/helicase | Hepatitis C virus | 83.5 µM | 11%
COc1nc(Nc2ccc3[nH]ncc3c2)nc(N2CCCC2)n1 | inhibition | DNA polymerase | Hepatitis B virus | 1 µg/mL | 67%
COc1ccc(N2CCN(C(=O)Nc3cc(-c4ccccc4)sc3C(=O)O)CC2)cc1 | IC50 | NS3 ATPase | Hepatitis C virus |  | 5–20 µM
O=C(Cc1ccccc1Cl)Nc1ccsc1-c1nc(C(=O)O)c(O)c(=O)[nH]1 | IC50 | HCV polymerase | Hepatitis C virus |  | <25 µM
Cc1ccc(C(=O)N(C)c2cc(-c3ccccn3)sc2C(=O)O)cc1 | IC50 | NS3 ATPase | Hepatitis C virus |  | 5–20 µM
CC[C@@H](C=O)NC(=O)[C@@H]1C[C@@H](OCc2ccccc2)CN1C(=O)[C@@H](NC(=O)[C@H](Cc1ccc(-c2ccccc2)cc1)NC(=O)c1cnccn1)C(C)C | Ki | NS3 protease | Hepatitis C virus |  | >100 µM
O=C(Nc1ccccc1-c1nc(C(=O)O)c(O)c(=O)[nH]1)NC1CC1c1ccccc1 | IC50 | HCV polymerase | Hepatitis C virus |  | <100 µM
CC[C@@H](C=O)NC(=O)[C@@H]1C[C@@H](OCc2ccccc2)CN1C(=O)[C@@H](NC(=O)/C=C/c1ccccc1)C(C)C | Ki | NS3 protease | Hepatitis C virus |  | 1–100 µM
COc1nc(Nc2ccc3cn[nH]c3c2)nc(NC2CC2)n1 | inhibition | Nonstructural protein 5B | Hepatitis C virus | 0.1 µg/mL | 40%

Again, the opening 5 rows:

structure,read-out,target,agent,tested at,value
COc1nc(NCCCn2ccnc2)nc(Nc2ccc3[nH]ncc3c2)n1,inhibition,DNA polymerase,Hepatitis B virus,1 µg/mL,56%
CC[C@H](NC(=O)[C@H](CC(C)C)NC(=O)[C@@H](NC(=O)[C@@H](NC(=O)[C@H](CC(=O)O)NC(=O)[C@@H](N)CCC(=O)O)C(C)C)C(C)C)C(=O)c1ncc(-c2c(Cl)cccc2Cl)o1,Ki,NS3 protease,Hepatitis C virus,,>100 µM
Cc1cc(S(=O)(=O)Nc2c(C(=O)O)sc3c2Sc2ccc(Cl)cc2C3)c(C)cc1Cl,IC50,NS3 ATPase,Hepatitis C virus,,5–20 µM
CC(C)CCc1c(-c2ccc(OCc3ccccc3)cc2)nc2cc(C(=O)O)[nH]n2c1=O,IC50,RNA-dependent RNA polymerase,Hepatitis C virus,,1–10 µM
O=C(O)CCC(=O)N[C@H](C(=O)N[C@@H](CCC(=O)O)C(=O)N[C@H](C(=O)N[C@@H](CS)C(=O)O)c1ccc(-c2ccccc2)cc1)C(c1ccccc1)c1ccccc1,inhibition,Nonstructural protein 3 NTPase/helicase,Hepatitis C virus,16.7 µM,13%

ICn is the concentration giving n% inhibition. Neighbouring rows are from separate reports. Percent inhibition refers to the dose given; in toxicity tests it is the harm to the cells. Blank or dashed fields: not listed here.